The target in this test is SARS-CoV-2 RBD protein (321–591) (SARS-CoV-2, Wuhan-Hu-1 (MN908947), UniProt P0DTC2). Put plainly: cell-based or functional assay.

B1: CV30 (antibody, V domains shown)
VH: QVQLVESGGGLIQPGGSLRLSCAASGVIVSSNYMSWVRQAPGKGLEWVSVIYSGGSTYYADSVKGRFTISRDNSKNTLYLQMNSLRAEDTAVYYCARDLDVSGGMDVWGQGTTVTVSS
VL: not shown
With B1, the “IC50 of neutralisation of authentic SARS-CoV-2 on Vero E6 cells (CPE assay)” value stood at 0.293 µg/mL.

These data come from paper PMC8442604 (Frontiers in Immunology, 2021).
